# Assay results published in PubChem BioAssay (NCATS).
# This is a selection; strong and weak results do not stand in their true shares. Active and inactive are the calls of the source. How the calls were made is not given here.
# Key:
# [1] = Ebola virus entry assay, ratio channel
# [2] = Ebola virus entry assay, reporter ratio channel; Channel type: primary
smiles,measurement,setting,value
OCCN1CCN(CC/C=C2/c3ccccc3Sc3ccc(C(F)(F)F)cc32)CC1,AC50,[1],active: 3.16 µM
same,AC50,[2],active: 3.16 µM
